# Potato spindle tuber viroid, loop 6: variant abundance in plants

Data from the supplement of Wu et al. 2024, doi:10.1371/journal.ppat.1012142.

Region: loop 6 of PSTVd (intermediate strain), upper and lower strand joined, each 5' to 3', the first 5 letters being the upper strand, closing pairs included. Wild type: UGACCGCGAG. Varied positions (N): UNNNCGNNNG.

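Three N. benthamiana plants were inoculated with the whole mutant pool. Samples came from the inoculated region at 5 days, the leaf margin at 10 and upper systemic leaves at 12.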

Values are reads per thousand in the sample; higher means more abundant, 0 means not found. Each site shows the three plants. "Pool" is the share in the plasmid pool used as inoculum, on the same scale. The inoculated region was read from the minus strand, the other sites from the plus strand. IR is the inoculated region, LM the leaf margin, Sys the systemic leaves. Sequences that differ at fixed positions probably stem from PCR or sequencing errors, and defective variants can be carried along by functional ones. Wild type was 20.7 per thousand in the pool and the most common sequence in every sample (inoculated region 195, 198, 203; leaf margin 629, 591, 734; systemic leaves 942, 870, 868). With 36,220-57,551 reads a sample, very low values are single reads.

| sequence | pool | IR | LM | Sys |
|---|---|---|---|---|
| UCAUCGAUUG | 0.275 | 0.0869 / 0.0180 / 0.129 | 0 / 0 / 0 | 0 / 0 / 0 |
| UCAUCGCAAG | 0.0915 | 0.0348 / 0.180 / 0.258 | 0 / 0 / 0 | 0 / 0 / 0 |
| UCAUCGCACG | 0.0784 | 0.0869 / 0.0539 / 0.0184 | 0 / 0 / 0 | 0 / 0 / 0 |
| UCAUCGCAGG | 0.170 | 0.122 / 0.126 / 0.0553 | 0 / 0 / 0.0232 | 0 / 0 / 0 |
| UCAUCGCAUG | 0.183 | 0.104 / 0.144 / 0.0369 | 0 / 0 / 0.0232 | 0 / 0 / 0 |
| UCAUCGCCAG | 0.170 | 0.0521 / 0.0719 / 0.148 | 0.0276 / 0 / 0 | 0 / 0 / 0 |
| UCAUCGCCCG | 0.288 | 0.0869 / 0 / 0.129 | 0.0276 / 0 / 0 | 0 / 0 / 0 |
| UCAUCGCCGG | 0.131 | 0.0869 / 0.108 / 0.111 | 0 / 0 / 0 | 0 / 0 / 0 |
| UCAUCGCCUG | 0.170 | 0.139 / 0.108 / 0.0553 | 0.0276 / 0 / 0 | 0 / 0 / 0 |
| UCAUCGCGAG | 0.0915 | 0.295 / 0.341 / 0.443 | 0.221 / 0.0252 / 0.232 | 0 / 0 / 0.0615 |
| UCAUCGCGCG | 0.170 | 0.122 / 0.108 / 0.0553 | 0 / 0 / 0 | 0 / 0 / 0 |
| UCAUCGCGGG | 0.170 | 0.0869 / 0.0539 / 0.0922 | 0.0276 / 0 / 0 | 0 / 0 / 0 |
| UCAUCGCGUG | 0.261 | 0.139 / 0.180 / 0.0553 | 0 / 0 / 0.0232 | 0 / 0 / 0 |
| UCAUCGCUAG | 0.0654 | 0.122 / 0.0898 / 0.0922 | 0 / 0 / 0.0232 | 0 / 0 / 0 |
| UCAUCGCUCG | 0.288 | 0.0695 / 0.0719 / 0.0738 | 0.0276 / 0 / 0 | 0 / 0 / 0 |
| UCAUCGCUGG | 0.196 | 0.139 / 0.0898 / 0.0922 | 0 / 0 / 0.0232 | 0 / 0 / 0 |
| UCAUCGCUUG | 0.170 | 0.174 / 0.0719 / 0.0369 | 0 / 0 / 0 | 0 / 0 / 0 |
| UCAUCGGAAG | 0.0523 | 0.0869 / 0.0898 / 0.0738 | 0 / 0 / 0.0232 | 0 / 0 / 0 |
| UCAUCGGACG | 0.209 | 0.521 / 0.862 / 0.350 | 0.138 / 0.126 / 0.0696 | 0 / 0 / 0 |
| UCAUCGGAGA | 0.0131 | 0 / 0 / 0 | 0 / 0 / 0 | 0 / 0 / 0 |
| UCAUCGGAGG | 0.170 | 0.139 / 0.0539 / 0.0922 | 0 / 0 / 0 | 0 / 0 / 0 |
| UCAUCGGAUG | 0.235 | 0.122 / 0.126 / 0.0922 | 0.0552 / 0 / 0 | 0 / 0 / 0 |
| UCAUCGGCAG | 0.144 | 0.104 / 0.0180 / 0.0922 | 0 / 0 / 0 | 0 / 0 / 0 |
| UCAUCGGCCG | 0.209 | 0.122 / 0.0359 / 0.0738 | 0.0276 / 0 / 0.0464 | 0 / 0 / 0 |
| UCAUCGGCGG | 0.288 | 0.122 / 0.108 / 0.111 | 0 / 0 / 0 | 0 / 0.0202 / 0 |
| UCAUCGGCUG | 0.248 | 0.0695 / 0.0359 / 0.0922 | 0.0276 / 0 / 0 | 0 / 0 / 0 |
| UCAUCGGGAG | 0.209 | 0.695 / 0.754 / 0.479 | 0.166 / 0.101 / 0.209 | 0 / 0 / 0 |
| UCAUCGGGCG | 0.118 | 0.817 / 0.880 / 0.479 | 0.166 / 0.0252 / 0.0696 | 0 / 0 / 0 |
| UCAUCGGGGG | 0.0784 | 0.104 / 0 / 0.111 | 0 / 0 / 0.0232 | 0 / 0 / 0 |
| UCAUCGGGUG | 0.157 | 0.0348 / 0.0359 / 0.0553 | 0 / 0 / 0 | 0 / 0 / 0 |
| UCAUCGGUAG | 0.222 | 0.191 / 0.0539 / 0.0369 | 0 / 0 / 0 | 0 / 0 / 0 |
| UCAUCGGUCG | 0.301 | 0.139 / 0.0539 / 0.0553 | 0 / 0 / 0 | 0 / 0 / 0 |
| UCAUCGGUGG | 0.183 | 0.0869 / 0.0539 / 0.0553 | 0 / 0 / 0 | 0 / 0 / 0 |
| UCAUCGGUUG | 0.118 | 0.0521 / 0.0539 / 0.0738 | 0 / 0 / 0 | 0 / 0 / 0 |
| UCAUCGUAAG | 0.0654 | 0.0521 / 0.0719 / 0.166 | 0 / 0 / 0 | 0 / 0 / 0 |
| UCAUCGUACG | 0.261 | 0.104 / 0.0719 / 0.0369 | 0 / 0 / 0 | 0 / 0 / 0 |
| UCAUCGUAGG | 0.196 | 0.0869 / 0.0719 / 0.0369 | 0 / 0 / 0.0232 | 0 / 0 / 0 |
| UCAUCGUAUG | 0.183 | 0.104 / 0.0539 / 0.0553 | 0.387 / 0 / 0.0232 | 0 / 0 / 0 |
| UCAUCGUCAG | 0.222 | 0.0695 / 0.0719 / 0.0184 | 0 / 0 / 0.0232 | 0 / 0 / 0 |
| UCAUCGUCCG | 0.248 | 0.0869 / 0.0719 / 0.0922 | 0 / 0 / 0 | 0 / 0 / 0 |
| UCAUCGUCGG | 0.157 | 0.174 / 0.0719 / 0.129 | 0 / 0 / 0 | 0 / 0 / 0 |
| UCAUCGUCUG | 0.196 | 0.139 / 0.0539 / 0.111 | 0.0276 / 0 / 0 | 0 / 0 / 0 |
| UCAUCGUGAG | 0.261 | 0.156 / 0.162 / 0.184 | 0 / 0 / 0.0232 | 0 / 0 / 0 |
| UCAUCGUGCG | 0.157 | 0.0695 / 0.0180 / 0.0553 | 0 / 0 / 0.0232 | 0 / 0 / 0 |
| UCAUCGUGGG | 0.105 | 0.104 / 0.0539 / 0.111 | 0 / 0 / 0 | 0 / 0 / 0 |
| UCAUCGUGUG | 0.235 | 0.104 / 0.0898 / 0.0738 | 0 / 0 / 0.0232 | 0 / 0 / 0 |
| UCAUCGUUAG | 0.431 | 0.0521 / 0.0898 / 0.148 | 0 / 0 / 0.0464 | 0 / 0 / 0 |
| UCAUCGUUCG | 0.196 | 0.0869 / 0.126 / 0.0553 | 0.0276 / 0 / 0 | 0 / 0 / 0 |
| UCAUCGUUGG | 0.222 | 0.104 / 0.0898 / 0.148 | 0 / 0 / 0 | 0 / 0 / 0 |
| UCAUCGUUUG | 0.209 | 0.0348 / 0.126 / 0.0922 | 0 / 0 / 0 | 0 / 0 / 0 |
| UCAUCUGGGG | 0.0131 | 0 / 0 / 0 | 0 / 0 / 0 | 0 / 0 / 0 |
| UCAUCUGUCC | 0.0131 | 0 / 0 / 0 | 0 / 0 / 0 | 0 / 0 / 0 |
| UCCACGAAAG | 0.118 | 0.0869 / 0.126 / 0.0922 | 0 / 0 / 0.0232 | 0 / 0 / 0 |
| UCCACGAACG | 0.275 | 0.0348 / 0.180 / 0.0738 | 0 / 0 / 0 | 0 / 0 / 0 |
| UCCACGAAGG | 0.0784 | 0.104 / 0.0539 / 0.0738 | 0.0276 / 0 / 0 | 0 / 0 / 0 |
| UCCACGAAUG | 0.222 | 0.0869 / 0.0898 / 0.111 | 0 / 0 / 0 | 0 / 0 / 0 |
| UCCACGACAG | 0.235 | 0.122 / 0.126 / 0.0738 | 0 / 0 / 0 | 0 / 0 / 0 |
| UCCACGACCG | 0.170 | 0.104 / 0.0180 / 0.0922 | 0 / 0 / 0 | 0 / 0 / 0 |
| UCCACGACGG | 0.157 | 0.0695 / 0.0539 / 0.111 | 0 / 0 / 0 | 0 / 0 / 0 |
| UCCACGACUG | 0.275 | 0.0695 / 0.108 / 0.0738 | 0 / 0 / 0 | 0 / 0 / 0.0205 |
| UCCACGAGAG | 0.157 | 0.174 / 0.0898 / 0.0184 | 0 / 0 / 0.0232 | 0 / 0 / 0.0205 |
| UCCACGAGCG | 0.222 | 0.156 / 0.180 / 0.0922 | 0.0552 / 0 / 0 | 0 / 0 / 0 |
| UCCACGAGGG | 0.170 | 0.0521 / 0.0719 / 0.111 | 0 / 0 / 0 | 0 / 0 / 0 |
| UCCACGAGUG | 0.261 | 0.0695 / 0.0539 / 0.111 | 0 / 0 / 0.0232 | 0 / 0 / 0 |
| UCCACGAUAG | 0.144 | 0.156 / 0.108 / 0.0738 | 0 / 0 / 0.209 | 0 / 0 / 0 |
| UCCACGAUCG | 0.275 | 0.0348 / 0.0719 / 0.0922 | 0.0276 / 0 / 0 | 0 / 0 / 0 |
| UCCACGAUGG | 0.275 | 0.104 / 0.0898 / 0.111 | 0 / 0 / 0 | 0 / 0 / 0 |
| UCCACGAUUG | 0.314 | 0.104 / 0.126 / 0.0922 | 0 / 0 / 0 | 0 / 0 / 0 |

Excerpt, the final 4 entries:

{"sequence": "UCCACGAUAG", "pool": "0.144", "IR": "0.156 / 0.108 / 0.0738", "LM": "0 / 0 / 0.209", "Sys": "0 / 0 / 0"}
{"sequence": "UCCACGAUCG", "pool": "0.275", "IR": "0.0348 / 0.0719 / 0.0922", "LM": "0.0276 / 0 / 0", "Sys": "0 / 0 / 0"}
{"sequence": "UCCACGAUGG", "pool": "0.275", "IR": "0.104 / 0.0898 / 0.111", "LM": "0 / 0 / 0", "Sys": "0 / 0 / 0"}
{"sequence": "UCCACGAUUG", "pool": "0.314", "IR": "0.104 / 0.126 / 0.0922", "LM": "0 / 0 / 0", "Sys": "0 / 0 / 0"}